Earlier results as cited in publication PMC6593967, “The development and prevalidation of an in vitro mutagenicity assay based on MutaMouse primary hepatocytes, Part II: Assay performance for the identification of mutagenic chemicals” (Environmental and Molecular Mutagenesis, 2019).

Tests used:
tk locus = conditions: cited from earlier work
Hprt gene = conditions: cited from earlier work

**Q.** Which “Response in MLA” value (tk locus) does the source give for aflatoxin B1 [AFB1] here?
**A.** Its value is “strong positive”.

**Q.** What about the “Response in HPRT test” value (Hprt gene) of the same substance?
**A.** Its value is “strong positive”.
